Compound potency records, mixed from different reports. Data source: NIAID ChemDB in PubChem.

All rows: cytotoxicity tests; read-out: CC50

Blank or dashed fields: not listed here. CCn: concentration that lowers growth or viability of the cells by n%. a–b is a range or a potency band. Rows are shuffled and stem from different studies.

| compound | cell line | read by | setting | value |
|---|---|---|---|---|
| Nc1nc(=O)c2ncn([C@H]3O[C@@H](CO)[C@H](O)[C@@H]3O)c2c(=O)[nH]1 | 2.2.15 | - | - | 2400 µM |
| Nc1ccn(C[C@@H](CO)OCP(=O)(O)O)c(=O)n1 | OST TK-/HSV-1 TK+ | - | - | 459 µM |
| Nc1ncnc2c1ncn2[C@H]1CC[C@@H](CO)O1 | CFU-GM | - | - | 100 µM |
| OCCc1ccc(O)c(O)c1 | MDA-MB-231 | MTT | - | 7.86 µM |
| CC(C)(O)c1ccc2c(c1)CC[C@H]1[C@](C)(C(=O)O)CCC[C@]21C | NCl-H187 | absorbance | - | 24.7 µg/mL |
| NC(=O)c1[nH]c2ccc(Cl)cc2c1S(=O)(=O)c1ccccc1 | Lymphocytes | - | - | >20 µM |
| CN(C)[C@H]1C[C@@]23CC[C@@]4(O2)C(=CC[C@]2(C)C(c5cccc6cnccc56)=CC[C@H]24)C=C3[C@@H](O)[C@@H]1O | HUVEC | ATP | - | >1 µM |
| CCCCC1CN(S(=O)(=O)C2CC2)CCC12CCN(C1(C)CCN(C(=O)c3c(C)ncnc3C)CC1)CC2 | CEM-R5 | - | - | 0.022 µM |
| O=c1nc(N2CCN(CC3CCCCC3)CC2)sc2c([N+](=O)[O-])cc(C(F)(F)F)cc12 | A-594 | MTT | - | 784.2 µg/mL |
| CCc1cn([C@H]2C[C@H](N=[N+]=[N-])[C@@H](CO)O2)c(=O)[nH]c1=O | BFU-E | - | - | 5 µM |
| CC1N=Nc2cc(C3=CC[C@@H]4[C@]3(C)CC=C3C=C5[C@@H](O)[C@H](O)[C@@H](N(C)C)C[C@]56CC[C@@]34O6)ccc21 | HUVEC | ATP | - | >1 µM |
| COc1cc(/C=C/C(=O)O[C@H]2[C@H](O)[C@@H](OC3OCC(O)(CO)C3O)[C@H](OCCc3ccc(O)cc3)O[C@@H]2CO)ccc1O | MDA-MB-231 | MTT | - | 8.3 µM |
| CN(C)[C@H]1C[C@@]23CC[C@@]4(O2)C(=CC[C@]2(C)C(c5ccc6ccncc6c5)CC[C@@H]42)CC3[C@@H](O)[C@@H]1O | HUVEC | ATP | - | 0.1–1 µM |
| COC(=O)[C@H](C)NP(=O)(OC[C@@H]1C[C@]12C[C@@H]2n1cnc2c(N)ncnc21)Oc1ccccc1 | 2.2.15 | - | - | 27 µM |
| CN(CC1CCCCC1)C1CCN(c2nc(=O)c3cc(C(F)(F)F)cc([N+](=O)[O-])c3s2)C1 | A-594 | MTT | - | 67.46 µg/mL |
| O=C1CCC(c2ccccc2)C(=O)N1CCCCN1CCN(c2ccccn2)CC1 | VERO 76 | MTT | - | 98 µM |
| CCCCC1CN(S(=O)(=O)c2cn(C)cn2)CCC12CCN(C1(C)CCN(C(=O)c3c(C)ncnc3C)CC1)CC2 | CEM-R5 | - | - | 0.027 µM |
| COc1cc(SC)ccc1C(=O)NC1N=C(c2ccccc2)c2ccccc2NC1=O | HEP-2 | - | - | 6.3 µM |
| CO/N=C1\CCCN(c2nc(=O)c3cc(C(F)(F)F)cc([N+](=O)[O-])c3s2)CC1 | A-594 | MTT | - | 58.3 µg/mL |
| Cc1ccc(Cn2cc(/C=N/Nc3nncs3)c3ccccc32)cc1 | Fibroblast L929 cell line | MTT | 24 h | >100 µg/mL |
| C=C1CC[C@H](O)[C@@]2(C)CC[C@H](C(C)C)C[C@]12O | HOG.R5 | - | - | >20 µg/mL |
| C=C[C@@]1(C)C=C2CC[C@@H]3[C@](C)(CCC[C@@]3(C)C(=O)O)[C@H]2CC1 | NCl-H187 | absorbance | - | 42.11 µg/mL |
| CCCCCCCCCCCCCCCC(=O)OCC(CO)(CO)NC(=O)CNC(=O)CCCc1ccc(C(CCCl)CCCl)cc1 | PC-3 | - | - | 10.7 µM |
| CO/N=C1/CCN(c2nc(=O)c3cc(C(F)(F)F)cc([N+](=O)[O-])c3s2)CC1N | A-594 | MTT | - | 241 µg/mL |
| NC(=S)c1cn([C@H]2C[C@H](O)[C@@H](CO)O2)c2ncnc(N)c12 | MEF | - | - | 4 µM |
| CCCCCCCCCCCCCCCC(=O)OCC(CO)(COC(=O)CCCCCCCCCCCCCCC)NC(=O)CNC(=O)CC[C@H](NC(=O)c1ccc(N(C)Cc2cnc3nc(N)nc(N)c3n2)cc1)C(=O)O | Jurkat cells | - | - | 1.2 µM |
| Cn1cc(/C=N/Nc2nncs2)c2ccccc21 | Fibroblast L929 cell line | MTT | 24 h | >100 µg/mL |
| N=C(N)c1cn([C@@H]2O[C@H](CO)[C@@H](O)[C@@H]2O)c2ncnc(N)c12 | MEF | - | - | 235 µM |
| O=C(NC1N=C(c2ccccc2)c2ccccc2NC1=O)c1ccccc1C(F)(F)F | VERO | - | - | 4 µM |
| CN(C)[C@H]1C[C@@]23CC[C@@]4(O2)C(=CC[C@]2(C)C(C#Cc5cccnc5)=CC[C@H]24)C=C3[C@@H](O)[C@@H]1O | HUVEC | ATP | - | >1 µM |
| N/C(=N/O)c1cn([C@H]2C[C@H](O)[C@@H](CO)O2)c2ncnc(N)c12 | MEF | - | - | 85 µM |
| C[C@@H]1O[C@@H](O[C@@H]2[C@@H](O)[C@H](OCCc3ccc(O)c(O)c3)O[C@H](CO)[C@H]2OC(=O)/C=C/c2ccc(O)c(O)c2)[C@H](O)[C@H](O)[C@H]1O | HL-60 | MTT | - | 13.52 µM |
| O=C1CCC(c2ccccc2)C(=O)N1CCCCN1CCN(c2ccccc2O)CC1 | VERO 76 | MTT | - | >100 µM |
| O=c1[nH]c(=O)n([C@H]2C[C@H](O)[C@@H](CO)O2)cc1/C=C/Br | OST TK- | - | - | 1437 µM |
| O=C1CCC(c2ccccc2)C(=O)N1CCCCN1CCN(c2ccc(F)cc2)CC1 | VERO 76 | MTT | - | 92 µM |
| COc1cccc(NC(=O)NC2N=C(c3ccccc3)c3ccccc3NC2=O)c1 | HEP-2 | - | - | 4.9 µM |
| CO/N=C1\CCN(c2nc(=O)c3cc(C(F)(F)F)cc([N+](=O)[O-])c3s2)C1 | A-594 | MTT | - | 57.66 µg/mL |
| COc1cc2c(cc1OC)[C@H](c1cc(OC)c(OC)c(OC)c1)[C@@H](C)[C@@H](C)C2 | 293T | - | - | >10 µM |
| O=c1[nH]cnc2c1ncn2[C@H]1CC[C@@H](CO)O1 | CFU-GM | - | - | >100 µM |
| CON=C1CCN(c2nc(=O)c3cc(C(F)(F)F)cc([N+](=O)[O-])c3s2)CC1 | A-594 | MTT | - | 102 µg/mL |
| COc1ccc(Cn2cc(/C=N/Nc3nncs3)c3ccccc32)cc1 | Fibroblast L929 cell line | MTT | 24 h | >100 µg/mL |
| CCCCC1CN(C(=O)C2CCOCC2)CCC12CCN(C1(C)CCN(C(=O)c3c(C)cc(C#N)nc3C)CC1)CC2 | CEM-R5 | - | - | 0.17 µM |
| NC(=O)c1cn([C@H]2C[C@H](O)[C@@H](CO)O2)c2ncnc(N)c12 | MEF | - | - | 7 µM |
| CN(C)[C@H]1C[C@@]23CC[C@@]4(O2)C(=CC[C@]2(C)C(c5ccc6cnccc6c5)=CC[C@H]24)C=C3[C@@H](O)[C@@H]1O | HUVEC | ATP | - | >1 µM |
| O=C(Nc1cccc(Cl)c1)NC1N=C(c2ccccc2)c2ccccc2NC1=O | HEP-2 | - | - | 9.6 µM |
| OCCc1ccc(O[C@@H]2O[C@H](CO)[C@@H](O)[C@H](O)[C@H]2O)c(O)c1 | MDA-MB-231 | MTT | - | 19.43 µM |
| CO[C@H]1O[C@@H](n2ccc(=O)[nH]c2=O)C[C@@H]1N=[N+]=[N-] | CFU-GM | - | - | 10 µM |
| C(=N\Nc1nncs1)/c1cn(CC2CCC2)c2ccccc12 | Fibroblast L929 cell line | MTT | 24 h | >100 µg/mL |

The last 7 rows once more:

compound	cell line	read by	setting	value
CCCCC1CN(C(=O)C2CCOCC2)CCC12CCN(C1(C)CCN(C(=O)c3c(C)cc(C#N)nc3C)CC1)CC2	CEM-R5	-	-	0.17 µM
NC(=O)c1cn([C@H]2C[C@H](O)[C@@H](CO)O2)c2ncnc(N)c12	MEF	-	-	7 µM
CN(C)[C@H]1C[C@@]23CC[C@@]4(O2)C(=CC[C@]2(C)C(c5ccc6cnccc6c5)=CC[C@H]24)C=C3[C@@H](O)[C@@H]1O	HUVEC	ATP	-	>1 µM
O=C(Nc1cccc(Cl)c1)NC1N=C(c2ccccc2)c2ccccc2NC1=O	HEP-2	-	-	9.6 µM
OCCc1ccc(O[C@@H]2O[C@H](CO)[C@@H](O)[C@H](O)[C@H]2O)c(O)c1	MDA-MB-231	MTT	-	19.43 µM
CO[C@H]1O[C@@H](n2ccc(=O)[nH]c2=O)C[C@@H]1N=[N+]=[N-]	CFU-GM	-	-	10 µM
C(=N\Nc1nncs1)/c1cn(CC2CCC2)c2ccccc12	Fibroblast L929 cell line	MTT	24 h	>100 µg/mL